Measurements taken from patent US20210340224A1 (BEIJING WISDOMAB BIOTECHNOLOGY, published 2021).

Target: T1, G protein (GCVS11) of wild-type rabies virus strain CVS-11 (rabies virus strain CVS-11, UniProt O92284 20-459)
T1 sequence: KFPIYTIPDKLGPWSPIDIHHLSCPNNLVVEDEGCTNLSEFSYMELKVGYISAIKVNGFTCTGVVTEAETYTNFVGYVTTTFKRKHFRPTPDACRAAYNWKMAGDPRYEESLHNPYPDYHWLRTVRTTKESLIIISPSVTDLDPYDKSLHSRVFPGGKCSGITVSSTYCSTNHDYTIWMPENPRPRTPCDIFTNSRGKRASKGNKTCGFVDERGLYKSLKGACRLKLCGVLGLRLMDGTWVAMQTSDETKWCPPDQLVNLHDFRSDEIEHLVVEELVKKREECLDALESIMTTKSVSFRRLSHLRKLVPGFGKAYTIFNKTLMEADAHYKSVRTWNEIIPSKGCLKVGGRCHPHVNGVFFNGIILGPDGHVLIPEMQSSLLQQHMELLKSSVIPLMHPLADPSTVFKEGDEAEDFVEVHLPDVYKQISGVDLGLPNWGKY
Test: cell-based or functional assay

B1: fully human monoclonal antibody C34m (antibody, V domains shown)
VH: QVQLVESGGGVVQPGRSLRLSCAASGFTFGSYGMHWVRQAPGKGLEWVATISYDGSIKDYADSVKGRFTISRDNSKNTLYLQMNSLRAEDTAVYYCAKGDRTGNLDYWGQGTLVTVSS
VL: DIQMTQSPSSLSASVGDRVTITCRASQNIRNALNWYQQKPGKAPKLLIYDASTRQSGVPSRFSGSGSGTDFTLTISSLQPEDFATYYCQQNSEFPPTFGQGTKVEIKR
Q: Which “antibody titer by RFFIT, Average value (IU/mg)” value does the source give for B1 here?
A: 2110 IU/mg

B2: bispecific antibody S2E3-scFv-FcH+C34m-IgG1K (bispecific antibody)
scFv: QVQLVQSGAEVKKPGSSVKVSCKASGGTYSGYTINWVRQAPGQGLEWMGGIIPIFGTANYAQRFQGRLTITADESTSTAYMELSSLRSDDTAVYFCARENLDNSGTYYYFSGWFDPWGQGTLVTVSSGGGGSGGGGSGGGGSQSALTQPRSVSGSPGQSVTISCTGTSSDLGGYDFVSWYQQHPGKAPKLMIYDATKRPSGVPDRFSGSKSGNTASLTISGLQAEDEADYYCCSYAGDYTPGVVFGGGTKLTVLASEPKSSDKTHTCPPCPAPELLGGPSVFLFPPKPKDTLMISRTPEVTCVVVDVSHEDPEVKFNWYVDGVEVHNAKTKPREEQYNSTYRVVSVLTVLHQDWLNGKEYKCKVSNKALPAPIEKTISKAKGQPREPQVCTLPPSREEMTKNQVSLSCAVKGFYPSDIAVEWESNGQPENNYKTTPPVLDSDGSFFLVSKLTVDKSRWQQGNVFSCSVMHEALHNHYTQKSLSLSPGK
heavy: not shown
light: not shown
Q: How did the “antibody titer by RFFIT, Average value (IU/mg)” value turn out when B2 was run?
A: 1740 IU/mg
